The values below come from the supplement of paper PMC9931576.

Holding throughout (assay): pseudovirus neutralization IC50; higher = weaker neutralization
In experiment [1] the target is SARS-CoV-2 Omicron BA.1 spike pseudovirus. The method, then:
(§1)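 Single-round VSV luciferase pseudovirus mixed with antibody dilutions for 1 h and put on Huh-7 cells for about a day; IC50 from the dose curve.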

The target in experiment [2] is SARS-CoV-2 Omicron BA.2 spike pseudovirus. The method, then: as §1
Experiment [3] has as its target SARS-CoV-2 Omicron BA.2.75 spike pseudovirus. The method, then:
as §1

Experiment [4] addresses SARS-CoV-2 Omicron BA.5 spike pseudovirus. The method, then:
as §1

The target of experiment [5] is SARS-CoV-2 Omicron BQ.1.1 spike pseudovirus. As to the method:
as §1

The target in experiment [6] is SARS-CoV-2 Omicron XBB spike pseudovirus. As to the method: as §1
In experiment [7] the target is SARS-CoV-2 early D614G spike pseudovirus. The method, then: as §1

Human monoclonal antibodies against the spike receptor-binding domain (heavy:light variable regions). IC50 against pseudoviruses bearing the spike of naturally observed variants; lower = stronger; >10 µg/ml means not reached at the top dose. No active / inactive call. The stated detection limit is 0.0005 µg/ml; values near or below 0.001 µg/ml lie at the floor of the assay. Some results are limits rather than exact numbers.

B1: BD56-091 (protein)
chain 1: QVQLQQWGAGLLKPSETLYLTCAVYSGSFSGYYWSWIRQPPGKGLEWIGEINHRGTTNYNPSLKSRVTISVDTSKNQFSLKLNSVTAADTAVYYCARDHDYDSSGYYYPASSGLVDSWGQGTLVTVSS
chain 2: EIVLTQSPDFQSVTPKEKLTITCRASQNIGNNLHWYQQKPDQPPKVLIKYASQSFSGVPSRFTGSRSGTDFTLTINSLEAEDAATYYCQQSSSLPWTFGQGTKVEIK
On to B1, for which the “pseudovirus neutralization IC50” value in experiment [1] is 0.0331 µg/mL; in experiment [2], above 10 µg/mL; in experiment [3], above 10 µg/mL; in experiment [4], above 10 µg/mL; in experiment [5], above 10 µg/mL; in experiment [6], above 10 µg/mL. Also, the “pseudovirus neutralization IC50” value in experiment [7] is 0.00918 µg/mL.

B2: BD56-096 (protein)
chain 1: QVQLVQSGAEVKKPGSSVKVSCKASGGTFSSYTMTWVRQAPGQGLEWMGRIIPFLGVADLAQKFQGRGTITADKSTSTVYMELSSLTSEDTAVYFCAREGSMVQGVTYGTYWFDPWGQGTLVTVSS
chain 2: QSVLTQPPSVSGAPGQRVTISCIGSNSNIGAGYDVQWYQQLPGTAPKLLIYGNINRPSGVPDRFSGSKSDTSASLVIIGLQAEDEADYYCQSYDSSLSGSLFGGGTKLTVL
With B2, the “pseudovirus neutralization IC50” value in experiment [1] was 0.0498 µg/mL; in experiment [2] it was 0.0406 µg/mL; in experiment [3], 0.042 µg/mL; in experiment [4], 0.362 µg/mL; in experiment [5] it was 1.45 µg/mL; in experiment [6], 0.663 µg/mL. Besides, the “pseudovirus neutralization IC50” value in experiment [7] was found to be 0.184 µg/mL.

B3: BD56-075 (protein)
chain 1: EVQLLESGGGLVQPGGSLRLSCSASRFTFSTYAMNWVRQAPGKGLEWVSAISASGDFKYYADSVKGRFTISRDNSKNTLSLQMKSLRADDTAVYYCAKEGGFSDYYDVFDIWGQGTVVTVSS
chain 2: DIQVTQSPSSLSASVGDRVTITCRASQSIGSYLNWYQQKPGKAPKLLIYATSSLPSGVPSRFSGSGSGTDFTLTISSLQPEDFASYYCQQSYNTPPWTFGQGTKVEIK
With B3, the “pseudovirus neutralization IC50” value in experiment [1] was above 10 µg/mL; in experiment [2], 8.46 µg/mL; in experiment [3] it was above 10 µg/mL; in experiment [4], 8.67 µg/mL; in experiment [5] it was above 10 µg/mL; in experiment [6], above 10 µg/mL. Besides, in experiment [7], the “pseudovirus neutralization IC50” value is 2.79 µg/mL.

B4: BD56-117 (protein)
chain 1: QVQLVESGGGVVRPGRSLRLSCAASGFTFSNYGMHWVRQAPGKGLEWVAVISDDGTYKSYADSVKGRFTISRDNSKNTLYLQFNSLRAEDTAVYYCARDEAETLMVTWFDYWGQGTLVTVSP
chain 2: DIQMTQSPSSLSASVGDRVTITCRASQSVNRYLNWYQQKPGKAPKLLIYASSNLHSGVPSRFSGSGSGTDFTLTISSLQPEDFATYYCQQSYNTPPWTFGQGTKVEVK
Consider B4, for which the “pseudovirus neutralization IC50” value in experiment [1], in experiment [2], in experiment [3], in experiment [4], in experiment [5] and in experiment [6] was above 10 µg/mL in each case. For the same molecule, in experiment [7], the “pseudovirus neutralization IC50” value was above 10 µg/mL.

B5: BD56-085 (protein)
chain 1: QVQLQQSGPGLVKPSQTLSLTCAISGDSVSSNSVAWNWIRQSPSRGLEWLGRTYHRAKWYNDYAISVKRRITINPDTSKNQFSLQLYSVTPEDTAVYYCARVGAAADPDYYFDSWGQGTLVTVSS
chain 2: AIQLTQSPSSLSASVGDKVTITCRASQGISRALAWYQQKPGKPPKLLIFDASSLGGGVPSRFSGSGSGTDFTLTISSLQPEDFATYYCQQFNNYPLTFGQGTRLDMK
Consider B5, for which the “pseudovirus neutralization IC50” value was 0.0632 µg/mL in experiment [1]; 0.0772 µg/mL in experiment [2]; 0.0361 µg/mL in experiment [3]; 0.0579 µg/mL in experiment [4]; above 10 µg/mL in experiment [5]; above 10 µg/mL in experiment [6]. Also, in experiment [7], the “pseudovirus neutralization IC50” value is 0.0222 µg/mL.

B6: BD56-087 (protein)
chain 1: EVQLVESGGGLVKPGGSLRLSCAASRFTFISYTMNWVRQAPGKGLEWVSSISSGSTYIYYADSVKGRFTISRDNAKKSLYLQMNSLRVEDTAVYYCTRVESPDDYDLLTDAFDIWGQGTMVTVSS
chain 2: EIVLTQSPGTLSLSPGERATLSCRASQSISSSYLAWYQQKPGRAPRLLIYAAFSRAAGIPDRFSGSESGTDFTLTISRLEPEDFAVYYCQQYGSSSITFGQGTRLDIK
For the molecule B6, the “pseudovirus neutralization IC50” value in experiment [1] was 0.0723 µg/mL; in experiment [2], 0.0817 µg/mL; in experiment [3], 0.0569 µg/mL; in experiment [4], above 10 µg/mL; in experiment [5], above 10 µg/mL; in experiment [6] it was above 10 µg/mL. The “pseudovirus neutralization IC50” value in experiment [7] was 0.696 µg/mL.

B7: BD56-092 (protein)
chain 1: QVQLVQSGAEVKKPGSSVKVSCKASGGTYGSYTITWVRQAPGHGLEWMGGIIPLLATSNYADKLQGRVTITADKSTSTAYMELSSLRSEDTAVYYCASTLGYSDYGSSPYMDVWGKGTTVTVSS
chain 2: QSVLTQPPSVSGAPGQRITISCSGSSSNIWAGYDVHWYQQLPGTAPKLLIFRNSNRPSDVPDRFSGSKSGTSASLAITGLQAEDEADYFCQSYDSSLNGVLFGGGTKVTVL
In the case of B7, the “pseudovirus neutralization IC50” value in experiment [1] amounted to 8.43 µg/mL; in experiment [2] it was 5.4 µg/mL; in experiment [3] it was 6.5 µg/mL; in experiment [4], 5.94 µg/mL; in experiment [5], 4.96 µg/mL; in experiment [6], 3.84 µg/mL. Moreover, the “pseudovirus neutralization IC50” value in experiment [7] came out at 6.32 µg/mL.

B8: BD56-115 (protein)
chain 1: QVQLVQSGAEVKKPGSSVKVSCKASGGTFSSHPISWVRQAPGQGLEWMGRVIPILGIANYAQKFQARVAITADKSTSTAYMELSRLRSDDTAVYYCARDVGYSDSGSSYYFDYWGQGILVTVSS
chain 2: QSVLTQPPSVSGAPGQRVTVSCTGSSSNIGAGYDVHWYQQLPGAAPKLLIYRNNNRPSGVPDRFSGSKSGTSASLAITGLQAEDEAAYYCQSYDSSLSASVFGGGTKLTVL
On to B8, for which the “pseudovirus neutralization IC50” value in experiment [1] is 0.688 µg/mL; in experiment [2], 0.75 µg/mL; in experiment [3] it was 0.556 µg/mL; in experiment [4], above 10 µg/mL; in experiment [5], above 10 µg/mL; in experiment [6] it was 7.28 µg/mL. Moreover, in experiment [7], the “pseudovirus neutralization IC50” value amounted to 1.12 µg/mL.

B9: BD56-116 (protein)
chain 1: EVQLVESGGGLVQPGGSLRLSCAASGFTFSNYDMHWVRQVTGKGLEWVSTIGTAGDTYYSDSVKGRFTISRDNVKKSLYLQMKSLRAGDTAVYYCARGSSESVVTLFDHWGQGAQVTVSS
chain 2: DIQMTQSPSSLSASIGDRVIITCRASQSISRYLNWYQQKPGKAPELLIYSASTLQDGVPSRFSGSGSGTDFTLTISSLQPEDFATYYCQQSYTNPSITFGQGTRLEIK
As for B9, the “pseudovirus neutralization IC50” value in experiment [1], in experiment [2], in experiment [3], in experiment [4], in experiment [5] and in experiment [6] was above 10 µg/mL throughout. For the same molecule, in experiment [7], the “pseudovirus neutralization IC50” value was found to be 7.58 µg/mL.

B10: BD56-089 (protein)
chain 1: QVQLVQSGAEVKKPGSSVKVSCRTSGGSFGSFAISWVRQAPGQGPEWMGKIIPILGIPNHAQKFQGRVTITADKSTSTAYMDLSSLRSEDTAVYYCARDNGDYYDSSGLMTEYFQHWGQGTLVTVSS
chain 2: QSVLTQPPSVSGAPGQRVTISCTGSNSNIGAGYDVHWYLQLPGTAPKLLIYGHTNRPSGVPDRFSGSKSGTSASLAITGLQAEDEADYYCQSYDSSLSGSVFGSGTKVTVL
With B10, the “pseudovirus neutralization IC50” value in experiment [1] was 1.03 µg/mL; in experiment [2], 0.965 µg/mL; in experiment [3], 1.26 µg/mL; in experiment [4] it was above 10 µg/mL; in experiment [5], above 10 µg/mL; in experiment [6] it was above 10 µg/mL. Further, in experiment [7], the “pseudovirus neutralization IC50” value stood at 0.959 µg/mL.

B11: BD56-110 (protein)
chain 1: QVQLVESGGGVVQPGRSLRLSCAASGFTFSSHAMHWVRQAPGKGLEWVAVILNDGTYKDYGDSVKGRFTISRDNSKNTLYLQMNSLRVEDTAVYYCARDYGDYVTWFDSWGQGTLVSVSS
chain 2: DIQMTQSPSSLSASIGDRVTITCRASQSIRRDLNWYQQKPGNAPKLLIYSASSLQSGVPSRFSGSGSGTEFTLSISSLQPEDLATYYCQQSYNTPPWTFGQGTKVEVK
Regarding B11, the “pseudovirus neutralization IC50” value in experiment [1] was found to be 0.972 µg/mL; in experiment [2], 0.903 µg/mL; in experiment [3], 0.968 µg/mL; in experiment [4], 0.856 µg/mL; in experiment [5], 1.89 µg/mL; in experiment [6], 2.12 µg/mL. Also, in experiment [7], the “pseudovirus neutralization IC50” value was found to be 0.81 µg/mL.

B12: BD56-105 (protein)
chain 1: VTLKESGPVLVKPTGTLTLTCTVSGFSLNNARMGVSWIRQPPGKALEWLAHIFSNDEKSYNTSLKSRLSISRDTSKSQVVLSMTNMDPVDTATYYCARTSSDSGTYYDDIWFDPWGQGTRVTVSS
chain 2: SSELRQPPSVSVSPGQTARITCSGHTLPNQYAYWYQQRPGQAPVLVIFKDNARPSGIPARFSGSNSGTTVTLTISGVQAEDEADYYCQTADSSGVVFGGGTKLTVL
Consider B12, for which the “pseudovirus neutralization IC50” value in experiment [1], in experiment [2], in experiment [3], in experiment [4], in experiment [5] and in experiment [6] was above 10 µg/mL in each case. In addition, the “pseudovirus neutralization IC50” value in experiment [7] is above 10 µg/mL.
